Results of unrelated studies side by side (data: NIAID ChemDB).

Common to all: growth or infection tests; species: HIV-1

ECn is the concentration giving n% inhibition of infection, replication or growth.

N#Cc1cc2[nH]c3ccccc3c2n(-c2ccc([N+](=O)[O-])cc2)c1=O ; strain: NNRTI-resistant ; mutations: RT-K103N Y188L ; cells: HeLa ; read by: luciferase ; measure: fold resistance ; value: 0.7
CC(C)(C)NC(=O)[C@@H]1C[C@@H]2CCCC[C@@H]2CN1C[C@@H](O)[C@H](Cc1ccccc1)NC(=O)[C@H](CC(N)=O)NC(=O)c1ccc2ccccc2n1 ; strain: NL4-3 ; mutations: PR-L63P V82T ; cells: MT-4 ; read by: p24 ; measure: EC95 ; value: 0.025 µM
CCn1nc(Cc2cccc(F)c2)cc1C1CCN(C[C@H]2CN([C@@H](C(=O)O)C3CCCCC3)C[C@@H]2c2cccc(F)c2)CC1 ; strain: BaL ; cells: HeLa ; read by: β-galactosidase ; setting: 50% human serum ; measure: EC90 ; value: 0.033 µM
Cc1cc(S(N)(=O)=O)ccc1NC(=O)COc1ccc(Cl)cc1C(=O)c1cc(Cl)cc(C#N)c1 ; strain: NNRTI-resistant (RT V106I E138K P236L) ; mutations: RT-V106I E138K P236L ; cells: MAGI ; read by: β-galactosidase ; measure: fold resistance ; value: 165
Cc1ccnc2c1NC(=O)c1cccnc1N2C1CC1 ; strain: HIVRTMF (RT L74V) ; mutations: RT-L74V T215Y ; cells: HT4 + HT4 LacZ-1 ; read by: plaque count ; measure: fold resistance ; value: 0.833
CC(C)CN(C[C@@H](O)[C@H](Cc1ccccc1)NC(=O)[C@H](CC(N)=O)NC(=O)c1ccc2ccccc2n1)C(=O)NC(C)(C)C ; strain: NL4-3 ; mutations: PR-M46I L63P ; cells: MT-4 ; read by: p24 ; measure: EC95 ; value: 0.2 µM
Cc1cn([C@H]2C[C@H](N=[N+]=[N-])[C@@H](CO)O2)c(=O)[nH]c1=O ; strain: NRTI resistant ; mutations: RT-T69K K70G V75I F77L F116Y Q151M M184V ; cells: HeLa ; read by: luciferase ; measure: fold resistance ; value: 274.3
Cc1ccnc2c1NC(=O)c1cccnc1N2C1CC1 ; mutations: RT-D67N K70R T215Y K219Q ; cells: MT-4 ; measure: EC95 ; value: 0.2 µM
CC[C@H](C)[C@H](C(=O)O)N1C[C@H](CN2CCC(c3cc(Cc4cccc(OC)c4)nn3CC)CC2)[C@@H](c2cccc(F)c2)C1 ; strain: BaL ; cells: HeLa ; read by: β-galactosidase ; setting: 50% human serum ; measure: EC90 ; value: 0.1 µM
O=C1N(Cc2ccc(CO)cc2)[C@H](Cc2ccccc2)[C@H](O)[C@@H](O)[C@@H](Cc2ccccc2)N1Cc1ccc(CO)cc1 ; strain: Clinical isolate X ; cells: PBMC ; read by: p24 ; measure: inhibition ; tested at: 0.29 µM ; value: 90%
CC(=O)N1CCC(C(=O)N(CCCN2CCC(Cc3ccc(C(N)=O)cc3)CC2)c2ccc(C)c(Cl)c2)CC1 ; strain: X4 subtype B_2 recombinant ; cells: U87 (CD4+ CXCR4+) + U87 ; read by: luciferase ; measure: EC50 ; value: >19 µM
CC[C@H](C)[C@H](C(=O)O)N1C[C@H](CN2CCC(c3cc(Cc4cccc(C#N)c4)nn3CC)CC2)[C@@H](c2cccc(F)c2)C1 ; strain: BaL ; cells: HeLa ; read by: β-galactosidase ; measure: EC90 ; value: <0.00014 µM
c1cc(CN2CCCNCCNCCCNCC2)ccc1CN1CCCNCCNCCCNCC1 ; strain: 92US714 CLADE B R5 ; cells: PBMC ; read by: p24 ; measure: inhibition ; tested at: 0.1 µM ; value: 0%
CCn1nc(Cc2ccc(C#N)cc2)cc1C1CCN(C[C@H]2CN([C@@H](C(=O)O)C(C)(C)C)C[C@@H]2c2cccc(F)c2)CC1 ; strain: BaL ; cells: HeLa ; read by: β-galactosidase ; measure: EC90 ; value: <0.00014 µM
CC(C)CN(C[C@@H](O)[C@H](Cc1ccccc1)NC(=O)O[C@H]1CCOC1)S(=O)(=O)c1ccc(N)cc1 ; strain: NL4-3 ; mutations: PR-D30N N88D ; cells: MT-4 ; read by: p24 ; measure: EC90 ; value: 0.04 µM
CC[C@H](C)[C@H](C(=O)O)N1C[C@H](CN2CCC(c3cc(Cc4ccc(OC)c(C#N)c4)nn3CC)CC2)[C@@H](c2cccc(F)c2)C1 ; strain: BaL ; cells: HeLa ; read by: β-galactosidase ; measure: EC90 ; value: <0.00014 µM
C[C@H](Cn1cnc2c(N)ncnc21)OCP(=O)(O)O ; strain: NL4-3 WT ; cells: HeLa ; read by: luciferase ; measure: EC50 ; value: 0.5555 µM
CCn1nc(Cc2ccccc2F)cc1C1CCN(C[C@H]2CN([C@@H](C(=O)O)C(C)C)C[C@@H]2c2cccc(F)c2)CC1 ; strain: BaL ; cells: HeLa ; read by: β-galactosidase ; measure: EC90 ; value: 0.011 µM
O=C(O)P(=O)(O)O ; strain: IIIB ; cells: PBL ; setting: 10 d ; measure: inhibition ; tested at: 128 µM ; value: 99%

2 of the rows above, restated:

{"SMILES": "CCn1nc(Cc2ccc(C#N)cc2)cc1C1CCN(C[C@H]2CN([C@@H](C(=O)O)C(C)(C)C)C[C@@H]2c2cccc(F)c2)CC1", "strain": "BaL", "cells": "HeLa", "read by": "β-galactosidase", "measure": "EC90", "value": "<0.00014 µM"}
{"SMILES": "CC(C)CN(C[C@@H](O)[C@H](Cc1ccccc1)NC(=O)O[C@H]1CCOC1)S(=O)(=O)c1ccc(N)cc1", "strain": "NL4-3", "mutations": "PR-D30N N88D", "cells": "MT-4", "read by": "p24", "measure": "EC90", "value": "0.04 µM"}

Inhibition is in % at the dose shown (toxicity tests: loss of growth or viability). Conditions beyond the fields shown may differ between rows. Fold resistance has wild type as its base.